Test results as given in article PMC12299477 (Viruses, 2025).

Legend:
HCoV-OC43 = experiment: Virus inhibition assay (focus reduction), HCoV-OC43 on MRC-5 cells; type: cell-based, human coronavirus; conditions: CC50/EC50; HCoV-OC43, MRC-5 cells
RSV-A2 = experiment: Virus inhibition assay (plaque reduction), RSV-A2 on Hep-2 cells; type: cell-based, respiratory syncytial virus; conditions: CC50/EC50; RSV-A2, Hep-2 cells
IFV-A H1N1 = experiment: Virus inhibition assay (focus reduction), IFV-A H1N1 on MDCK cells; type: cell-based, influenza virus; conditions: CC50/EC50
HCoV-229E = experiment: Virus inhibition assay, HCoV-229E on MRC-5 cells; type: cell-based, human coronavirus

SMILES | SI (HCoV-OC43) | also measured
O=C(N[C@@H](Cc1ccc(O)cc1)C(=O)O)c1cc(-c2ccc(Cl)cc2)c(=O)n2c1sc1ccc(OC3CCCCC3)cc12 [Compound 9] | 46.4 | 
NS(=O)(=O)c1ccc(OC(=O)c2cc(-c3ccccc3)c(=O)n3c2sc2ccc(OC4CCCCC4)cc23)cc1 [Compound 23] | 79.1 | 
O=C(O)CCNC(=O)c1cc(-c2ccccc2)c(=O)n2c1sc1ccc(OC3CCCCC3)cc12 [Compound 10] | >25.1 | 
O=C(N[C@@H](Cc1ccc(O)cc1)C(=O)O)c1cc(-c2cccc(F)c2)c(=O)n2c1sc1ccc(OC3CCCCC3)cc12 [Compound 16] | 20.1 | SI (RSV-A2): 3.91
NC(=O)c1ncn([C@@H]2O[C@H](CO)[C@@H](O)[C@H]2O)n1 [ribavirin, reference compound] |  | SI (RSV-A2): >64.9
CC(C)(CC(=O)O)NC(=O)c1cc(-c2ccccc2)c(=O)n2c1sc1ccc(OC3CCCCC3)cc12 [Compound 1] | 12.3 | SI (RSV-A2): 47.2; SI (IFV-A H1N1): 7.49; EC50 value of HCoV-229E compared to HCoV-OC43 (fold higher) (HCoV-229E): ~ 10 fold; SI (HCoV-229E; CC50/EC50, HCoV 229E): 1.32
O=C(N[C@@H](Cc1ccc(O)cc1)C(=O)O)c1ccc(=O)n2c1sc1ccc(OC3CCCCC3)cc12 [Compound 27] | 18.9 | 
O=C(N[C@@H](Cc1ccc(O)cc1)C(=O)O)c1cc(-c2ccc(F)cc2)c(=O)n2c1sc1ccc(OC3CCCCC3)cc12 [Compound 14] | 57.1 | 
COc1ccc(-c2cc(C(=O)N[C@@H](Cc3ccc(O)cc3)C(=O)O)c3sc4ccc(OC5CCCCC5)cc4n3c2=O)cc1F [Compound 2] | 17.8 | 
O=C(N[C@@H](Cc1ccc(O)cc1)C(=O)O)c1cc(-c2cccs2)c(=O)n2c1sc1ccc(OC3CCCCC3)cc12 [Compound 25] | 57.0 | SI (IFV-A H1N1): 6.28
CCOC(=O)C1=C[C@@H](OC(CC)CC)[C@H](NC(C)=O)[C@@H](N)C1 [oseltamivir, reference compound] |  | SI (IFV-A H1N1): >1176
